Anti-infective test results gathered from many reports (values: NIAID ChemDB through PubChem).

Common to all: growth or infection tests; agent: HIV-1

An empty or dashed field is not shown. ECn: concentration that inhibits the pathogen or its effect by n%. Neighbouring rows are from separate reports.

compound	read-out	cell line	changes	strain	read by	value
Cc1cn([C@H]2C=C[C@@H](CO)O2)c(=O)[nH]c1=O	EC50	MT-4	RT-T69N L74I Q151M M184V	LZ-07.96 (HXB2 RT T69N L74I Q151M M184V)	cytopathic effect	4.77 µM
Cc1cc(C#Cc2ccc(N)cc2)cc(C)c1Oc1ccnc(Nc2ccc(C#N)cc2)n1	EC50	MT-4	-	IIIB	MTT	0.014 µM
CN[C@@H]1[C@H](O[C@@H]2OC[C@@H](O)[C@H](O)[C@H]2O)[C@@H](O)[C@H](O[C@H]2c3cc(C)c(C(=O)N[C@H](C)C(=O)O)c(O)c3-c3c(cc4c(c3O)C(=O)c3cc(OC)cc(O)c3C4=O)[C@@H]2O)O[C@@H]1C	EC50	CEM	-	IIIB	syncytia	2.8 µg/mL
C1CNCCNCCCN[C@H]([C@@H]2CNCCCNCCNCCCN2)CNC1	EC50	MT-4	-	IIIB	cytopathic effect / MTT	0.144 µM
Cn1c2ccccc2c2c1cc(C#N)c(=O)n2-c1ccc([N+](=O)[O-])cc1	EC50	HeLa	RT-M41L D67N V118I M184V L210W T215Y	NRTI resistant	luciferase	0.119 µM
COc1ccc(/C=C(C)/C=C2\CO[C@@H](c3oc(OC)c(C)c(=O)c3C)C2)cc1OC	EC90	PBMC + LC5-RIC	-	LAI	fluorescence	0.5876 µM
Cc1ccnc2c1NC(=O)c1cccnc1N2C1CC1	EC50	CEM	-	IIIB	syncytia	0.02 µM
CC(C)(C)NC(=O)[C@@H]1CN(Cc2cccnc2)CCN1C[C@@H](O)C[C@@H](Cc1ccccc1)C(=O)N[C@H]1c2ccccc2C[C@H]1O	EC50	PBMC	-	BaL	p24	0.011 µM
COc1oc([C@H]2C/C(=C/C(C)=C/c3ccc(N(C)C)cc3)CO2)c(C)c(=O)c1C	EC90	PBMC + LC5-RIC	-	LAI	fluorescence	0.1892 µM
CCN1C(=O)N(Cc2cccc(Cl)c2)S(=O)(=O)c2cscc21	EC50	CEM	RT-K103N	-	syncytia	>56 µM
Nc1nc(N)c2ncn([C@H]3CO[C@@H](CO)O3)c2n1	EC50	PBMC	-	LAI	p24	4.1 µM
CC(C)Nc1cccnc1N1CCN(C(=O)c2cc3cc(NS(C)(=O)=O)ccc3[nH]2)CC1	EC50	MT-4	-	IIIB	cytopathic effect	0.02 µM
CNC(C)[C@H]1O[C@H](O[C@@H]2[C@@H](O)[C@H](O[C@@H]3OC[C@@](C)(O)[C@@H](NC)[C@@H]3O)[C@@H](NC(=O)[C@@H](N)CCCN=C(N)N)C[C@H]2NC(=O)[C@@H](N)CCCN=C(N)N)[C@H](NC(=O)[C@@H](N)CCCN=C(N)N)[C@@H](O)[C@@H]1O	EC50	MT-4	AMD3100-resistant	NL4-3	cytopathic effect / MTT	60 µM
CCc1cc(NCc2nc3c(Cl)ccc(Cl)c3o2)c(=O)[nH]c1C	EC90	PBMC	RT-K70R	Clinical isolate (RT K70R)	p24	0.2 µM
Nc1ccn([C@H]2CC[C@@H](CO)O2)c(=O)n1	EC50	PBMC	-	NL4-3 WT	p24	0.02 µM
N#Cc1cc2[nH]c3ccccc3c2n(-c2ccc([N+](=O)[O-])cc2)c1=O	EC50	HeLa	RT-K103N P225H	NNRTI-resistant	luciferase	0.047 µM
NC(=O)c1ncn([C@@H]2O[C@H](CO)[C@@H](O)[C@H]2O)n1	EC50	PBMC	-	LAI	p24	20.5 µM
COc1oc([C@H]2C/C(=C/C(C)=C/c3ccc(F)cc3F)CO2)c(C)c(=O)c1C	EC90	PBMC + LC5-RIC	-	LAI	fluorescence	0.086 µM
Cc1cn([C@H]2C[C@H](N=[N+]=[N-])[C@@H](CO)O2)c(=O)[nH]c1=O	EC50	MT-4	Y188L	IIIB	MTT	0.007 µM
Nc1ccn([C@H]2CC[C@@H](CO)O2)c(=O)n1	EC50	MT-4	-	ROD	MTT	0.165 µg/mL
Nc1nc(N)c2ncn([C@H]3CO[C@@H](CO)O3)c2n1	EC50	MT-4	-	HE	RT activity	0.94 µM
O=c1[nH]cnc2c1ncn2[C@H]1CC[C@@H](CO)O1	EC50	PBMC	-	NL4-3 WT	p24	0.4 µM
CO[P@](=O)(c1cc(C)cc(/C=C/C#N)c1)c1c(C(N)=O)[nH]c2ccc(Cl)cc12	EC50	-	Y181C	BH10	-	<0.004 µM
COc1ccc(S(=O)(=O)Nc2cc(Cl)ccc2OCC(=O)Nc2ccc(S(N)(=O)=O)cc2)cc1	EC50	C8166	-	IIIB	syncytia	0.105 µM
Nc1nc2c(ncn2[C@H]2CO[C@@H](CO)O2)c(=O)[nH]1	EC50	CBMC	-	IIIB	RT activity	0.046 µM
CC(C)(C)NC(=O)[C@@H]1C[C@@H]2CCCC[C@@H]2CN1C[C@@H](O)[C@H](Cc1ccccc1)NC(=O)[C@H](CC(N)=O)NC(=O)c1ccc2ccccc2n1	EC50	MT-4	RT-A62V S68G T69N V75I F77L F116Y Q151M	HXB2	cytopathic effect	>10 µM
C/C(=C(/CCO)SSCC1CCCO1)N(C=O)Cc1cnc(C)nc1N	EC50	H9/HIV-1(MN) + H9	-	MN	p24	<50 µM
C1CNCCNCCCN(CCCN2CCCNCCNCCCNCC2)CCNC1	EC90	MT-4	-	IIIB	cytopathic effect / MTT	0.87 µM
O=c1[nH]cnc2c1ncn2[C@H]1CC[C@@H](CO)O1	EC50	MT-4	RT-K65R M184V	HXB2-D (RT K65R M184V)	p24	34.2 µM
Cc1cn([C@H]2C[C@H](N=[N+]=[N-])[C@@H](CO)O2)c(=O)[nH]c1=O	EC50	MT-4	-	rHXB2	p24	<0.025 µM
COc1cc(OC)nc(N2C(=O)CSC2c2c(F)cccc2Cl)n1	EC50	PBMC	-	N119	p24 / ELISA	3.6 µg/mL
CC(C)=CCOCn1c(Cc2cc(C)cc(C)c2)c(C(C)C)c(=O)[nH]c1=O	EC50	MT-4	RT-Y181C	IIIB	cytopathic effect / MTT	15 µM
CCN1C(=O)N(Cc2ccccc2)S(=O)(=O)c2cscc21	EC50	MT-4	RT-D67N K70R T215F K219Q	ADP/141	syncytia	3.1 µM
C#Cc1ccc(Nc2nccc(Oc3c(C)cc(-c4cn(-c5ccc(C(=O)O)cc5)nn4)cc3C)n2)cc1	EC50	MT-4	E138K	IIIB	MTT	0.43 µM
Fc1cccc(F)c1C1SCc2nc3ccccc3n21	EC50	CEM + CEM-SS	-	LAV	cytopathic effect / XTT	0.52 µM
CC(C)Nc1cccnc1N1CCN(C(=O)c2cc3cc(NS(C)(=O)=O)ccc3[nH]2)CC1	EC50	MT-4	F227L + V106A	IIIB	MTT	2.616 µM
NC(N)=NCCC[C@H](N)C(=O)NC[C@@H]1OC(O[C@H]2[C@@H](O)[C@H](O[C@@H]3[C@@H](O)[C@H](NC(=O)[C@@H](N)CCCN=C(N)N)C[C@H](NC(=O)[C@@H](N)CCCN=C(N)N)[C@H]3O[C@H]3O[C@H](CNC(=O)[C@@H](N)CCCN=C(N)N)[C@@H](O)[C@H](O)[C@H]3NC(=O)[C@@H](N)CCCN=C(N)N)O[C@@H]2CO)[C@H](NC(=O)[C@@H](N)CCCN=C(N)N)[C@@H](O)[C@@H]1O	EC50	MT-4	-	AZT-resistant Clinical isolate	cytopathic effect / MTT	0.8 µM
Nc1ccn([C@H]2CC[C@@H](CO)O2)c(=O)n1	EC50	PBL	-	IIIB	p24	0.003 µM
COc1oc([C@H]2C/C(=C/C(C)=C/c3ccc(Cl)cc3)CO2)c(C)c(=O)c1C	EC50	PBMC + LC5-RIC	-	LAI	fluorescence	0.0005 µM
Cc1cc(S(N)(=O)=O)ccc1NC(=O)COc1ccc(Cl)cc1NS(=O)(=O)c1ccc([N+](=O)[O-])cc1	EC50	C8166	-	IIIB	syncytia	3.667 µM
C#Cc1ccc(Nc2nccc(Oc3c(C)cc(-c4cn(CC(=O)OC)nn4)cc3C)n2)cc1	EC50	MT-4	Y188L	IIIB	MTT	>10.35 µM
Cc1cc(C)nc(N2C(=O)CSC2c2c(Cl)cccc2[N+](=O)[O-])c1	EC50	PBMC	-	N119	p24 / ELISA	0.95 µg/mL
Nc1ncnc2c1ncn2CCOCP(=O)(O)O	EC50	MOLT4 + MOLT-4	-	HE	syncytia	10 µM
CCc1cc(NCc2nc3ccccc3o2)c(=O)[nH]c1C	EC50	MT-4	-	IIIB	p24	<0.2 µM
CCCCC#CCSc1ccccc1OC(C)=O	EC50	MT-2	-	3096 multinucleoside RES	-	4 µM
Cc1cn([C@H]2C[C@H](N=[N+]=[N-])[C@@H](COP(=O)(OCCSC(=O)C(C)(C)O)OCCSC(=O)C(C)(C)O)O2)c(=O)[nH]c1=O	EC50	MT-4	-	IIIB	cytopathic effect / MTT	0.041 µM
Nc1nc(=O)n([C@@H]2CO[C@H](CO)S2)cc1F	EC50	H9	-	IIIB	p24	0.1 µM
CC(C)(C)NC(=O)[C@@H]1CN(Cc2cccnc2)CCN1C[C@@H](O)C[C@@H](Cc1ccccc1)C(=O)N[C@H]1c2ccccc2C[C@H]1O	EC50	PBMC	PR-L10I K20R M36I/V P63L/S L90M	BR97 (PR L10I K20R M36I/V P63L/S L90M)	p24	0.003 µM
Cc1cc(/C=C/c2ccccc2)cc(C)c1Oc1ccnc(Nc2ccc(C#N)cc2)n1	EC50	MT-4	E138K	IIIB	MTT	0.235 µM
COC[C@@H](c1ccc(C(F)(F)F)cc1)N1CCN(C2(C)CCN(C(=O)c3c(C)ncnc3C)CC2)C[C@@H]1C	EC50	TZM-bl	M518V F519I	-	luciferase	0.0014 µM
C[C@H](Cn1cnc2c(N)nc(N)nc21)OCP(=O)(O)O	EC50	Macrophage + Monocytes/macrophages	-	BaL	p24 / syncytia	0.02 µM
Cc1cn([C@H]2C=C[C@@H](CO)O2)c(=O)[nH]c1=O	EC50	MAGI (CCR5) + MAGI	-	NL4-3 WT	β-galactosidase	0.25 µM
Cc1ccc(S(=O)(=O)Nc2cc(Cl)ccc2OCC(=O)Nc2ccc(S(N)(=O)=O)cc2)cc1	EC50	C8166	-	IIIB	syncytia	0.108 µM
CN1C(=O)N(Cc2ccccc2)S(=O)(=O)c2cscc21	EC50	CEM	RT-K103N	-	syncytia	>324 µM
C#Cc1ccc(Nc2nccc(Oc3c(C)cc(-c4cn(CCCC(=O)OC)nn4)cc3C)n2)cc1	EC50	MT-4	Y181C	IIIB	MTT	≥7.16 µM
COc1oc([C@H]2C/C(=C/C(C)=C/c3cccc(Cl)c3)CO2)c(C)c(=O)c1C	EC50	PBMC + LC5-RIC	-	LAI	fluorescence	4.021 µM
C#Cc1ccc(Nc2nccc(Oc3c(C)cc(-c4cn(CCc5ccccc5)nn4)cc3C)n2)cc1	EC50	MT-4	-	IIIB	MTT	0.16 µM
C#C[C@@]1(CO)C=C[C@H](n2cc(C)c(=O)[nH]c2=O)O1	EC50	MAGI (CCR5) + MAGI	RT-K103N	HXB2	β-galactosidase	0.46 µM
C#Cc1ccc(Nc2nccc(Oc3c(C)cc(-c4cn(Cc5cccc([N+](=O)[O-])c5)nn4)cc3C)n2)cc1	EC50	MT-4	L100I	IIIB	MTT	9.45 µM
Nc1ccn([C@H]2CO[C@@H](CO)S2)c(=O)n1	EC50	CEM	-	IIIB	p24	0.2 µM
C#Cc1ccc(Nc2nccc(Oc3c(C)cc(-c4cn(Cc5ccccc5[N+](=O)[O-])nn4)cc3C)n2)cc1	EC50	MT-4	Y181C	IIIB	MTT	>7.22 µM
CC(C)OC(=O)OCOP(=O)(CO[C@H](C)Cn1cnc2c(N)ncnc21)OCOC(=O)OC(C)C	EC50	MT-2	RT-T69D	JF4A ddC-resistant (RT T69D)	p24	0.004 µM
Cc1cn([C@H]2C[C@H](N=[N+]=[N-])[C@@H](CO)O2)c(=O)[nH]c1=O	EC50	MT-4	RES056A	IIIB	MTT	0.01 µM
Nc1ccn([C@@H]2CC[C@H](CO)O2)c(=O)n1	EC50	HT4 + HT4 LacZ-1	RT-M184V	184V (RT-M184V)	-	180 µM
Cc1ccnc2c1NC(=O)c1cccnc1N2C1CC1	EC95	MT-4	-	rHXB2	p24	0.1 µM
C#Cc1ccc(Nc2nccc(Oc3c(C)cc(-c4cn(CC(=O)Nc5ccc(Br)cc5)nn4)cc3C)n2)cc1	EC50	MT-4	-	IIIB	MTT	5.62 µM
Nc1nc2c(ncn2[C@H]2CO[C@@H](CO)O2)c(=O)[nH]1	EC50	PBMC	RT-K65R Q151M	-	cytopathic effect / XTT	30 µM
NS(=O)(=O)c1ccc(NC(=O)COc2ccccc2NS(=O)(=O)c2ccc(Cl)cc2)cc1	EC50	C8166	-	IIIB	syncytia	0.161 µM
CSc1c(C)c(SC)n2ccncc12	EC50	ACH-2(PMA+) + ACH2	-	-	p24	<15 µM
Nc1nc(=O)n([C@@H]2CS[C@H](CO)O2)cc1F	EC50	HT4 + HT4 LacZ-1	RT-M184V	184V (RT-M184V)	-	>500 µM
CCOCn1c(Cc2ccccc2)c(C(C)C)c(=O)[nH]c1=O	EC50	-	RT-K103N	HXB23(RT-K103N	cytopathic effect / MTT	2.1 µM
COc1oc([C@H]2C/C(=C/C(C)=C/c3ccc(S(C)(=O)=O)cc3)CO2)c(C)c(=O)c1C	EC90	PBMC + LC5-RIC	-	LAI	fluorescence	8.411 µM

For reference, 6 entries again:

COc1oc([C@H]2C/C(=C/C(C)=C/c3ccc(N(C)C)cc3)CO2)c(C)c(=O)c1C ; read-out: EC90 ; cell line: PBMC + LC5-RIC ; strain: LAI ; read by: fluorescence ; value: 0.1892 µM
Cc1cc(C)nc(N2C(=O)CSC2c2c(Cl)cccc2[N+](=O)[O-])c1 ; read-out: EC50 ; cell line: PBMC ; strain: N119 ; read by: p24 / ELISA ; value: 0.95 µg/mL
Cc1cc(C#Cc2ccc(N)cc2)cc(C)c1Oc1ccnc(Nc2ccc(C#N)cc2)n1 ; read-out: EC50 ; cell line: MT-4 ; strain: IIIB ; read by: MTT ; value: 0.014 µM
CC(C)(C)NC(=O)[C@@H]1C[C@@H]2CCCC[C@@H]2CN1C[C@@H](O)[C@H](Cc1ccccc1)NC(=O)[C@H](CC(N)=O)NC(=O)c1ccc2ccccc2n1 ; read-out: EC50 ; cell line: MT-4 ; changes: RT-A62V S68G T69N V75I F77L F116Y Q151M ; strain: HXB2 ; read by: cytopathic effect ; value: >10 µM
CCN1C(=O)N(Cc2ccccc2)S(=O)(=O)c2cscc21 ; read-out: EC50 ; cell line: MT-4 ; changes: RT-D67N K70R T215F K219Q ; strain: ADP/141 ; read by: syncytia ; value: 3.1 µM
C#Cc1ccc(Nc2nccc(Oc3c(C)cc(-c4cn(CCc5ccccc5)nn4)cc3C)n2)cc1 ; read-out: EC50 ; cell line: MT-4 ; strain: IIIB ; read by: MTT ; value: 0.16 µM